Compound potency records, mixed from different reports. Data source: NIAID ChemDB in PubChem.

Common to all: whole-cell or culture tests; organism: Influenza B virus; read-out: EC50

Conditions beyond the fields shown may differ between rows. Two numbers with a dash give a range or band. An empty or dashed field is not shown. ECn: concentration that inhibits the pathogen or its effect by n%.

compound	strain or isolate	cell line	read by	value
COC1(OC)CC(CO)(CNc2cc(Cl)nc(N)n2)C1	B/GIFU/2/73	MDCK	plaque count	>99 µM
CCCN(CCc1cccc(-c2ccccc2)c1)C(=O)[C@@H]1OC(C(=O)O)=C[C@H](N)[C@H]1NC(C)=O	-	-	plaque count	0.3 µg/mL
CC(C)C1CC(CO)(CNc2nc(N)nc(Cl)c2C=O)C1	B/GIFU/2/73	MDCK	plaque count	14–22 µM
CCCN(CCc1cccc(OC)c1)C(=O)[C@@H]1OC(C(=O)O)=C[C@H](N)[C@H]1NC(C)=O	-	-	plaque count	1.2 µg/mL
C/C=C\[C@@H]1C[C@H](C(=O)O)N[C@H]1[C@@H](NC(C)=O)[C@](C)(CCC)OC	Isolate C17C	MDCK	plaque count	<0.01 µg/mL
CC(=O)N[C@@H]1[C@@H](N)C=C(C(=O)O)O[C@H]1C(=O)N(CCN=[N+]=[N-])CCc1ccccc1	-	-	plaque count	23 µg/mL
CC(C)Oc1ccccc1NC(=O)Nc1ccc2cnccc2n1	-	-	plaque count	>32 µg/mL
COc1c(Cl)nc(N)nc1NCC1(CO)CC(CCc2ccccc2)C1	B/GIFU/2/73	MDCK	plaque count	0.16–0.8 µM
CCC(CC)[C@H](NC(C)=O)[C@@H]1[C@H](O)[C@@H](C(=O)O)C[C@H]1N=C(N)N	B/LEE/40	MDCK	-	3.2 µM
CCCN(CCc1ccccc1OC)C(=O)[C@@H]1OC(C(=O)O)=C[C@H](N)[C@H]1NC(C)=O	-	-	plaque count	9 µg/mL
CCC(CC)[C@H](NC(C)=O)[C@@H]1[C@H](O)[C@@H](C(=O)O)C[C@H]1N=C(N)N	Panama/45/90	MDCK	-	2.3 µM
CCCN(CCc1ccc(Cl)cc1Cl)C(=O)[C@@H]1OC(C(=O)O)=C[C@H](N)[C@H]1NC(C)=O	-	-	plaque count	3.2 µg/mL
Nc1nc(Cl)c(C=O)c(NCC2(CO)CC(CCc3ccccc3)C2)n1	B/GIFU/2/73	MDCK	plaque count	7.5–9.6 µM
CC(=O)N[C@H]1[C@H]([C@H](O)[C@H](O)CO)OC(C(=O)O)=C[C@@H]1N=C(N)N	LEE/40	MDCK	-	0.6 µM
Nc1nc(Cl)cc(NCC2(O)CCC2)n1	B/GIFU/2/73	MDCK	plaque count	>130 µM
CCCC(CCC)C(NC(C)=O)C1CC(C(=O)O)CC1N=C(N)N	LEE/40	MDCK	-	1.7 µM

Repeating the first 2 entries:

{"compound": "COC1(OC)CC(CO)(CNc2cc(Cl)nc(N)n2)C1", "strain or isolate": "B/GIFU/2/73", "cell line": "MDCK", "read by": "plaque count", "value": ">99 µM"}
{"compound": "CCCN(CCc1cccc(-c2ccccc2)c1)C(=O)[C@@H]1OC(C(=O)O)=C[C@H](N)[C@H]1NC(C)=O", "read by": "plaque count", "value": "0.3 µg/mL"}